Earlier results, collected in patent publication US20230137306A1 (priority 2020, published 2023).

Biological target: RNA-dependent RNA polymerase of Influenza A virus subtype H1N1 (Influenza A virus, UniProt P03431)
Details: via lethal mutation; cited from earlier work

For `NC(=O)c1nc(F)c[nH]c1=O` [favipiravir], the “inhibition of viral RNA-dependent RNA polymerase activity” value is listed as “inhibits the activity”.
